Measured values from several laboratories, pooled; numbers as filed in NIAID ChemDB.

Shared fields: cytotoxicity tests; cell line: CEM; read-out: CC50

Lines come from different laboratories, so protocols vary. Blank or dashed fields: not listed here. CCn is the concentration with n% toxicity to the cells.

Nc1nc(=O)n([C@H]2O[C@@H](CO)[C@H](O)C2(F)F)cc1F ; result: >100 µM
Cc1cn([C@@H]2O[C@@H]3CN[C@@]4(OCC(C)C)CS(=O)(=O)O[C@@]34[C@H]2O)c(=O)[nH]c1=O ; result: >250 µM
CCc1ccc(CS(=O)(=O)c2cccc[n+]2[O-])cc1 ; method: cell count ; result: 16 µg/mL
C=C(C)[C@@H]1CC[C@]2(C(=O)NCCCCCCCNC(=O)c3ccc(C(=O)O)cc3)CC[C@]3(C)[C@H](CC[C@@H]4[C@@]5(C)CC[C@H](O)C(C)(C)[C@@H]5CC[C@]43C)[C@@H]12 ; result: 2.97 µM
O=S(Cc1ccc(F)cc1)c1cccc[n+]1[O-] ; method: cell count ; result: 87 µg/mL
CCCCCO[C@]12CS(=O)(=O)O[C@@]13[C@@H](CN2)O[C@@H](n1cc(C)c(=O)[nH]c1=O)[C@@H]3O[Si](C)(C)C(C)(C)C ; result: 10.1 µM
O=S(Cc1ccccc1)c1cccc[n+]1[O-] ; method: cell count ; result: 20 µg/mL
O=C(c1cccc(F)c1)c1ccc2c(c1)sc(=O)n2Cc1ccccc1 ; result: 3.1 µg/mL
Cc1ccc2nc(Cl)c(/C=C/C(=O)c3ccc(I)s3)cc2c1 ; method: MTS ; result: 61.1 µM
CN(C)CCCNC(=O)c1ccccc1SSc1ccccc1C(=O)NCCCN(C)C ; result: 29 µM
CCCCCCCCCCNC(=O)CC(=O)O ; result: 12 µg/mL
C=CCC(c1cc(C)ccc1C)S(=O)(=O)c1cccc[n+]1[O-] ; method: cell count ; result: 38 µg/mL
CCNC(=O)NC(=O)C(C)OC(=O)c1c2c(nc3ccccc13)/C(=C\c1cccs1)CCC2 ; result: 26 µM
O=C(c1cccc(Cl)c1)c1ccc2c(c1)sc(=O)n2Cc1ccccc1 ; result: 4 µg/mL
O=C(NC1CCCCC1)c1ccccc1SSc1ccccc1C(=O)NC1CCCCC1 ; result: 7 µM
Cc1ccc2nc(Cl)c(/C=C/C(=O)c3sccc3C)cc2c1 ; method: MTS ; result: 82.1 µM
C=C(C)[C@@H]1CC[C@]2(C(=O)NCCCCCCCCC(=O)O)CC[C@]3(C)[C@H](CC[C@@H]4[C@@]5(C)CC[C@H](O)C(C)(C)[C@@H]5CC[C@]43C)[C@@H]12 ; result: >3 µM
O=C(c1ccc2[nH]c(=O)oc2c1)c1ccccc1F ; result: 10 µg/mL
O=C1NC(=O)C(CSc2ccccc2)(CSc2ccccc2)N1 ; result: >64 µM
C/C(=N\NC(=O)CN1c2c(-c3ccccc3)n[nH]c2-c2ccccc2S1(=O)=O)c1sccc1C ; method: MTS ; result: 13.1 µM
CCCCCCCCCNC(=O)CCC(=O)O ; result: 16 µg/mL
O=C(c1cccc(F)c1)c1ccc2[nH]c(=O)sc2c1 ; result: >200 µg/mL
O=C1NC(=O)C(COCc2ccccc2)(COCc2ccccc2)N1 ; result: >100 µM
CCCCCCNC(=O)CCCCCC(=O)O ; result: >100 µg/mL
O=C1NC(=O)C(CSCc2ccccc2)N1 ; result: >100 µM
Cc1ccc(C(C)S(=O)c2cccc[n+]2[O-])c(Cl)c1 ; method: cell count ; result: 0.28 µg/mL
O=C1CSC2=NC(=O)C3(NN12)c1ccccc1-c1ccccc13 ; result: 95 µM
CC(c1ccc(F)cc1)S(=O)c1cccc[n+]1[O-] ; method: cell count ; result: 0.33 µg/mL
O=C(COC(=O)c1c2c(nc3ccccc13)/C(=C\c1cccs1)CCC2)NC1CC1 ; method: propidium iodide ; result: 17 µM
O=C(O)CNC(=O)c1ccccc1SSc1ccccc1C(=O)NCC(=O)O ; result: >200 µM
O=S(=O)(Cc1ccccc1)c1ncccc1O ; method: cell count ; result: >100 µg/mL
C/C(=N\NC(=O)CN1c2c(-c3ccccc3)n[nH]c2-c2ccccc2S1(=O)=O)c1ccc(C)o1 ; method: MTS ; result: 15.4 µM
O=S(=O)(Cc1ccc(Cl)c(Cl)c1)c1cccc[n+]1[O-] ; method: cell count ; result: 2.9 µg/mL
CCCCOC(=O)CCCCCCCC(=O)O ; result: >100 µg/mL
CCCc1c(Cc2cccc3ccccc23)n(COC)c(=O)[nH]c1=O ; result: 128 µM
Cc1cc(S(=O)(=O)n2cccc2)c(Sc2cc(Cl)c(C)cc2S(=O)(=O)n2cccc2)cc1Cl ; method: XTT ; result: >200 µM
O=S(Cc1ccccc1)c1c(Cl)ccc[n+]1[O-] ; method: cell count ; result: 3.7 µg/mL
O=C1N=C2SC=C(NC(=S)Nc3ccccc3)N2NC12c1ccccc1-c1ccccc12 ; result: 82 µM
CCc1c(Cc2cccc3ccccc23)n(COCCO)c(=O)[nH]c1=O ; result: 125 µM
O=C(O)c1ccc(CS(=O)(=O)c2cccc[n+]2[O-])cc1 ; method: cell count ; result: >100 µg/mL
C=CCNC(=O)NC1=CSC2=NC(=O)C3(NN12)c1ccccc1-c1ccccc13 ; result: 70 µM
Cc1cn([C@@H]2O[C@@H]3CN[C@@]4(OCC5CCOC5)CS(=O)(=O)O[C@@]34[C@H]2O[Si](C)(C)C(C)(C)C)c(=O)[nH]c1=O ; result: 72 µM
Nc1nc2c(ncn2[C@@H]2O[C@@H](CO)[C@H](O)C2(F)F)c(=O)[nH]1 ; result: >100 µM
Cc1ccc[n+]([O-])c1S(=O)(=O)Cc1ccccc1Cl ; method: cell count ; result: 21 µg/mL
CCC(C)NC(=O)C(C)OC(=O)c1c2c(nc3ccccc13)/C(=C\c1cccs1)CCC2 ; method: propidium iodide ; result: 2 µM
COc1ccc2nc(Cl)c(/C=C/C(=O)c3cc(C)oc3C)cc2c1 ; method: MTS ; result: >100 µM
Nc1nc2c(ncn2[C@H]2O[C@@H](CO)[C@H](O)C2(F)F)c(=O)[nH]1 ; result: >100 µM
Cc1ccc2nc(Cl)c(/C=C/C(=O)c3cc(C)sc3C)cc2c1 ; method: MTS ; result: 11.6 µM
CCc1c(Cc2ccc3ccccc3c2)n(COCc2ccccc2)c(=O)[nH]c1=O ; result: 22.2 µM
Cc1ccc(C)c(C(Cc2ccccc2)Sc2cccc[n+]2[O-])c1 ; method: cell count ; result: 2.6 µg/mL
Cc1ccsc1C(=S)Nc1ccc(Cl)c(/C=N/OC(C)C)c1 ; result: 13 µg/mL
CNS(=O)(=O)c1ccc(NC(=O)c2ccccc2SSc2ccccc2C(=O)Nc2ccc(S(=O)(=O)NC)cc2)cc1 ; result: 12 µM
COc1ccc(CS(=O)c2cccc[n+]2[O-])cc1OC ; method: cell count ; result: 1.3 µg/mL
O=C(O)CCCCCCCCCCCn1cnnc1 ; result: 27 µg/mL
Nc1nc(=O)n([C@H]2O[C@@H](CO)[C@H](O)C2(F)F)cc1Br ; result: >100 µM
CCO[C@]12CS(=O)(=O)O[C@@]13C(CN2)O[C@@H](n1cc(C)c(=O)n(C)c1=O)[C@@H]3O[Si](C)(C)C(C)(C)C ; result: 32 µM
Cc1ccc2nc(Cl)c(/C=C/C(=O)c3cc(C)oc3C)cc2c1 ; method: MTS ; result: >100 µM
CCC1=C(C(=O)Nc2ccc(Cl)c(/C=N/OC(C)(C)C)c2)SCCO1 ; result: 11.4 µg/mL
O=C1NC(=O)C(CSCc2ccncc2)(CSCc2ccncc2)N1 ; result: >100 µM
Cc1cn([C@@H]2O[C@@H]3CN[C@@]4(OCCO)CS(=O)(=O)O[C@@]34[C@H]2O)c(=O)[nH]c1=O ; result: >250 µM
COc1ccc(C(=O)CSc2cc(Cl)c(C)cc2S(=O)(=O)n2cccc2)cc1 ; method: XTT ; result: 38.5 µM
C=C(C)[C@@H]1CC[C@]2(C(=O)NCCC(=O)NCCCCCCC(=O)O)CC[C@]3(C)[C@H](CC[C@@H]4[C@@]5(C)CC[C@H](O)C(C)(C)[C@@H]5CC[C@]43C)[C@@H]12 ; result: >3 µM
Cc1cc(S(=O)(=O)n2cccc2)c(SCC(N)=O)cc1Cl ; method: XTT ; result: 107 µM
COc1ccc(C)cc1CSc1cccc[n+]1[O-] ; method: cell count ; result: 31 µg/mL
Cc1cn([C@@H]2O[C@@H]3CN[C@@]4(OCc5ccccc5)CS(=O)(=O)O[C@@]34[C@H]2O[Si](C)(C)C(C)(C)C)c(=O)[nH]c1=O ; result: 20.4 µM
O=c1[nH]c(=O)n([C@@H]2O[C@@H](CO)[C@H](O)C2(F)F)cc1Cl ; result: >100 µM
COc1ccc2nc(Cl)c(/C=C/C(=O)c3ccc4c(c3)OCCO4)cc2c1 ; method: MTS ; result: 31.6 µM
Cc1sccc1C(=S)Nc1ccc(Cl)c(C(=O)OC2CCCCC2)c1 ; result: 6 µg/mL
CCc1cn([C@H]2C=C[C@@H](OCP(=O)(O)O)O2)c(=O)[nH]c1=O ; result: >100 µg/mL
C=C(C)[C@@H]1CC[C@]2(C(=O)NCCCCCCCC(=O)N3CCC[C@H]3C(=O)O)CC[C@]3(C)[C@H](CC[C@@H]4[C@@]5(C)CC[C@H](O)C(C)(C)[C@@H]5CC[C@]43C)[C@@H]12 ; result: >3 µM
O=C(O)CCCCCCCCCCCn1ncnn1 ; result: 168 µg/mL
CCCCC(=O)c1ccc2c(c1)oc(=O)n2CCN1CCOCC1 ; result: 15 µg/mL
CCCCCCCNC(=O)CCCCC(=O)O ; result: >100 µg/mL
C=C(C)[C@@H]1CC[C@]2(C(=O)NCCCCCCCC(=O)NC(Cc3ccccc3)C(=O)O)CC[C@]3(C)[C@H](CC[C@@H]4[C@@]5(C)CC[C@H](O)C(C)(C)[C@@H]5CC[C@]43C)[C@@H]12 ; result: >3 µM
Nc1nc(=O)n([C@@H]2O[C@@H](CO)[C@H](O)C2(F)F)cc1F ; result: >100 µM
CCNC(=O)NC(=O)C(C)OC(=O)c1c2c(nc3ccccc13)/C(=C\c1cccc(OC)c1OC)CC2 ; result: >300 µM
Cc1ccc(C)c(CSc2c(O)ccc[n+]2[O-])c1 ; method: cell count ; result: 65 µg/mL
C=C(C)[C@@H]1CC[C@]2(C(=O)NCCCCCCCC(=O)N[C@@H](Cc3ccccc3)[C@@H](O)CC(=O)O)CC[C@]3(C)[C@H](CC[C@@H]4[C@@]5(C)CC[C@H](O)C(C)(C)[C@@H]5CC[C@]43C)[C@@H]12 ; result: >3 µM
O=[N+]([O-])c1ccccc1CS(=O)(=O)c1cccc[n+]1[O-] ; method: cell count ; result: 13 µg/mL
COc1ccc2nc(Cl)c(/C=C/C(=O)c3ccsc3)cc2c1 ; method: MTS ; result: 1.8 µM
C=C(C)[C@@H]1CC[C@]2(C(=O)NCCCCCCCC(=O)Nc3cccc(C(=O)O)c3)CC[C@]3(C)[C@H](CC[C@@H]4[C@@]5(C)CC[C@H](O)C(C)(C)[C@@H]5CC[C@]43C)[C@@H]12 ; result: 2.96 µM
CCCNC(=O)c1ccccc1SSc1ccccc1C(=O)NCCC ; result: 19 µM
C/C(=N\NC(=O)CN1c2c(-c3ccccc3)n[nH]c2-c2ccccc2S1(=O)=O)c1ccc(Br)s1 ; method: MTS ; result: <1 µM
Cc1ccc2nc(Cl)c(/C=C/C(=O)c3ccc(C)o3)cc2c1 ; method: MTS ; result: 14 µM
Cc1ccsc1C(=S)Nc1ccc(Cl)c(C(=O)OC(C(C)C)C(C)C)c1 ; result: ≥100 µg/mL
CCc1cn([C@H]2C=C[C@@H](OCP(=O)(O)O)O2)c(=O)nc1N ; result: >100 µg/mL
C/C(=N\NC(=O)CN1c2c(-c3ccccc3)n[nH]c2-c2ccccc2S1(=O)=O)c1ccc[nH]1 ; method: MTS ; result: 20 µM
O=C1NC(=S)NNC12c1ccccc1-c1ccccc12 ; result: 44 µM
C=C(C)[C@@H]1CC[C@]2(C(=O)NCCCCCCCNC(=O)CCCC(=O)O)CC[C@]3(C)[C@H](CC[C@@H]4[C@@]5(C)CC[C@H](O)C(C)(C)[C@@H]5CC[C@]43C)[C@@H]12 ; result: >3 µM
COc1ccc(CS(=O)c2cccc[n+]2[O-])cc1 ; method: cell count ; result: 2.1 µg/mL
COC(=O)[C@H](Cc1ccccc1)NC(=O)[C@H]1/C(=C/CO)O[C@@H]2CC(=O)N21 ; result: >100 µg/mL
C=CCNC(=O)NC(=O)CSC1=NNC2(C(=O)N1)c1ccccc1-c1ccccc12 ; result: 31 µM
Cc1ccccc1C(Sc1cccc[n+]1[O-])C(N)=O ; method: cell count ; result: >100 µg/mL
O=c1ccn([C@H]2O[C@@H](CO)[C@H](O)C2(F)F)c(=O)[nH]1 ; result: >100 µM
Cc1c(Cc2ccc3ccccc3c2)n(COCCO)c(=O)[nH]c1=O ; result: 99.37 µM

The first 11 rows once more:

compound | method | result
Nc1nc(=O)n([C@H]2O[C@@H](CO)[C@H](O)C2(F)F)cc1F | - | >100 µM
Cc1cn([C@@H]2O[C@@H]3CN[C@@]4(OCC(C)C)CS(=O)(=O)O[C@@]34[C@H]2O)c(=O)[nH]c1=O | - | >250 µM
CCc1ccc(CS(=O)(=O)c2cccc[n+]2[O-])cc1 | cell count | 16 µg/mL
C=C(C)[C@@H]1CC[C@]2(C(=O)NCCCCCCCNC(=O)c3ccc(C(=O)O)cc3)CC[C@]3(C)[C@H](CC[C@@H]4[C@@]5(C)CC[C@H](O)C(C)(C)[C@@H]5CC[C@]43C)[C@@H]12 | - | 2.97 µM
O=S(Cc1ccc(F)cc1)c1cccc[n+]1[O-] | cell count | 87 µg/mL
CCCCCO[C@]12CS(=O)(=O)O[C@@]13[C@@H](CN2)O[C@@H](n1cc(C)c(=O)[nH]c1=O)[C@@H]3O[Si](C)(C)C(C)(C)C | - | 10.1 µM
O=S(Cc1ccccc1)c1cccc[n+]1[O-] | cell count | 20 µg/mL
O=C(c1cccc(F)c1)c1ccc2c(c1)sc(=O)n2Cc1ccccc1 | - | 3.1 µg/mL
Cc1ccc2nc(Cl)c(/C=C/C(=O)c3ccc(I)s3)cc2c1 | MTS | 61.1 µM
CN(C)CCCNC(=O)c1ccccc1SSc1ccccc1C(=O)NCCCN(C)C | - | 29 µM
CCCCCCCCCCNC(=O)CC(=O)O | - | 12 µg/mL